Results from PMC8864717 (Chemical Science, 2021).

Molecular target: SARS-CoV-2 Hel (Severe acute respiratory syndrome coronavirus 2, UniProt P0DTD1)
Details: read-out: IC50, SARS-CoV-2 Hel duplex (dsDNA) unwinding activity

Substance: colloidal bismuth subcitrate [CBS]
- IC50: 1.24 µM
